Experimental data: paper PMC4560900, “High-throughput screening against thioredoxin glutathione reductase identifies novel inhibitors with potential therapeutic value for schistosomiasis” (Infectious Diseases of Poverty, 2015)

Amino acid sequences for entries named in this document (tags omitted). Residues count along the entry.
UniProt Q962Y6, 1-598: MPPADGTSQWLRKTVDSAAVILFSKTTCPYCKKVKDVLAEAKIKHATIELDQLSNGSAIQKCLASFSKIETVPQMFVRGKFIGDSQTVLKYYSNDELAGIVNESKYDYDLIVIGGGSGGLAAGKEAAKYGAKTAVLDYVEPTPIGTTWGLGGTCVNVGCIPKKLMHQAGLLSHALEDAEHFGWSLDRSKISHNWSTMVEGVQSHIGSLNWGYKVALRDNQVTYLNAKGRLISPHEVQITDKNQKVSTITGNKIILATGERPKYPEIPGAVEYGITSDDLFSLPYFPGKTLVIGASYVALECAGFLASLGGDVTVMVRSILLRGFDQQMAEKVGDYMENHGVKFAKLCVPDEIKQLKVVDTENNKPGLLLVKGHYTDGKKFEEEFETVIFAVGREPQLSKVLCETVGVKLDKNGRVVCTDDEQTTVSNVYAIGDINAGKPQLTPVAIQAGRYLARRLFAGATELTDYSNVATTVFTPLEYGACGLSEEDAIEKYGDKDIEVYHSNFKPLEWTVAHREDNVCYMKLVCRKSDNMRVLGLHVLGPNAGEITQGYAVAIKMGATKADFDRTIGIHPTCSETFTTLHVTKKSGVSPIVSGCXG

How the values were obtained:
[1] = test system: larval worms (schistosomula); test: Ex vivo cidal activity against cultured larval parasites (schistosomula); conditions: tested at 50, 25, 12.5, 6.25 and 3.125 μM, n.a. = no activity
[2] = target: Thioredoxin glutathione reductase from S. mansoni (SmTGR) (Schistosoma mansoni, UniProt Q962Y6); test: Endpoint SmTGR fluorescence (ThioGlo) assay; type: biochemical; conditions: inhibition of SmTGR; for Efficacy (%): 30 μM naphthazarin defined as 100 % inhibition, means ± SEM; for IC50: means ± SEM of at least three independent experiments

| SMILES | Larva: lowest concentration resulting in 100 % larval death at 48 hours [1] | Efficacy (%) [2] | IC50 [2] | Efficacy (%) ([2]; tested form: bromide) | IC50 ([2]; tested form: bromide) |
| --- | --- | --- | --- | --- | --- |
| O=[N+]([O-])c1sc2ccccc2c1Nc1nnn[nH]1 | 50 µM | 82.47 ± 1.70% | 14.5 µM | – | – |
| Cc1ccc(S(=O)(=O)c2ccc([N+](=O)[O-])c[n+]2[O-])cc1 | 3.125 µM | 95.55 ± 2.02% | 0.862 µM | – | – |
| CN(C)CC1Oc2ccccc2OC1(O)c1ccccc1 (centres unmarked) | 50 µM | 98.44 ± 0.80% | 7.35 µM | – | – |
| NS(=O)(=O)c1cc([N+](=O)[O-])c(Cl)s1 | 6.25 µM | 82.32 ± 1.51% | 3.35 µM | – | – |
| CC(C)(C)C(=O)C(C#N)=C1Oc2ccc(O)cc2S1 | 50 µM | 99.21 ± 0.21% | 11.6 µM | – | – |
| O=[N+]([O-])c1sc2ccccc2c1-[n+]1ccccc1 | – | – | – | 94.87 ± 0.19% | 1.35 µM |
| CS(=O)(=O)N=C1C(Cl)=C(Cl)C(=NS(C)(=O)=O)C(Cl)=C1Cl | – | 98.97 ± 0.87% | 6.08 µM | – | – |
| CCCCCn1c(O)nnc1Sc1ncc([N+](=O)[O-])s1 | 12.5 µM | 97.51 ± 0.75% | 1.67 µM | – | – |
| NS(=O)(=O)c1ccc(S(=O)(=O)c2ccc([N+](=O)[O-])cn2)cc1 | – | 94.31 ± 1.53% | 1.61 µM | – | – |
| CN(C)CCC(=O)c1ccc2oc(=O)ccc2c1 | 12.5 µM | 98.78 ± 0.76% | 9.06 µM | – | – |
| Oc1ccc(C2CNCc3sccc32)c(Br)c1O (centres unmarked) | 50 µM | 77.47 ± 1.08% | 0.562 µM | – | – |
| Cc1ccc(N2C(=O)C3C4C=CC(CO)(O4)C3C2=O)cc1Br (centres unmarked) | – | 99.60 ± 0.26% | 3.85 µM | – | – |
| CC(C)(C)c1nnc(Sc2ncc([N+](=O)[O-])s2)[nH]1 | 6.25 µM | 95.73 ± 0.86% | 3.03 µM | – | – |
| O=C(O)COc1ccc(N2C(=O)C=CC2=O)cc1 | – | 97.34 ± 3.30% | 3.18 µM | – | – |
| O=[N+]([O-])c1c(Br)sc(NCc2ccccc2)c1[N+](=O)[O-] | 50 µM | 98.57 ± 0.63% | 7.24 µM | – | – |
| CCOc1ccccc1N1C(=O)C2C3C=CC(C3=C(c3ccccc3)c3ccccc3)C2C1=O (centres unmarked) | – | 98.99 ± 0.45% | 4.48 µM | – | – |
| COC(=O)c1scc(C)c1N1C(=O)C=CC1=O | 50 µM | 98.65 ± 1.37% | 3.24 µM | – | – |
| Cc1cccc(NC(=O)Oc2c(Br)cc3oc(=O)sc3c2Br)c1 | – | 74.21 ± 1.41% | 13.1 µM | – | – |
| Cc1ccc(C(=O)C(Br)=C2OC(=N)NC2=O)cc1 | 50 µM | 97.36 ± 1.75% | 2.86 µM | – | – |
| O=[N+]([O-])c1cnc(Sc2nnc(O)n2C2CCCCC2)s1 | 25 µM | 98.23 ± 2.04% | 1.04 µM | – | – |
| CC1([N+](=O)[O-])C(Br)=C(Br)C(=O)C(Br)=C1Br | 12.5 µM | 98.03 ± 1.12% | 2.6 µM | – | – |
| N=C(N)SCCS(=O)(=O)Oc1ccc(Cl)cc1 | – | 95.62 ± 2.29% | 12 µM | – | – |
| COCc1cc(C)nc(OCC(=O)NN=Cc2cc(I)cc(I)c2O)c1C#N | 50 µM | 97.08 ± 1.53% | 0.957 µM | – | – |
| CS(=N)c1ncc(C(F)(F)F)cc1Cl (centres unmarked) | 50 µM | 73.87 ± 0.93% | 6.72 µM | – | – |
| O=c1c(Cl)c2oc3ccc(Cl)cc3nc-2c(Cl)c1Cl | 12.5 µM | 90.0 ± 1.379% | 14.8 µM | – | – |
| CS(=O)(=O)c1nsc(S(C)(=O)=O)c1C#N | – | 98.56 ± 1.56% | 3.55 µM | – | – |
| COc1ccc(S(=O)(=O)Oc2ccc3occ([N+](=O)[O-])c3c2)cc1 | – | 95.20 ± 2.54% | 7.17 µM | – | – |
| Clc1ccc(N2COc3ccc4ccccc4c3C2)cc1 | – | 97.19 ± 0.74% | 7.92 µM | – | – |

| SMILES | Larva: lowest concentration resulting in 100 % larval death at 48 hours [1] | Efficacy (%) [2] | IC50 [2] | Efficacy (%) ([2]; tested form: bromide) | IC50 ([2]; tested form: bromide) |
| --- | --- | --- | --- | --- | --- |
| O=C(/C=C/c1ccco1)c1c(-c2ccccc2)c2cc(Br)ccc2[nH]c1=O | 50 µM | 97.56 ± 2.98% | 2.89 µM | – | – |
| COC(=O)c1ccccc1CC1=CC(=O)C=CC1=O | – | 96.87 ± 2.64% | 6.63 µM | – | – |
| CC(=NN=C(NN=C(C)c1ccc(Br)cc1)NN=C(C)c1ccc(Br)cc1)c1ccc(Br)cc1 | – | 98.36 ± 1.29% | 0.205 µM | – | – |
| CN(C)CCCNc1sc(Br)c([N+](=O)[O-])c1[N+](=O)[O-] | 50 µM | 85.95 ± 2.33% | 6.29 µM | – | – |
| O=c1c([N+](=O)[O-])c(Cl)c2ccccc2n1-c1ccccc1 | 50 µM | 72.99 ± 3.01% | 5 µM | – | – |
| CN(C)CCC(=O)c1ccc(S(C)(=O)=O)cc1 | 6.25 µM | 98.88 ± 0.79% | 16.1 µM | – | – |
| COc1ccc(NC(=O)Oc2c(Br)cc3oc(=O)sc3c2Br)c(C)c1 | – | 77.86 ± 2.78% | 9.29 µM | – | – |
| CSc1nnc(SC2=CC(=O)CC(c3ccccc3)C2)s1 (centres unmarked) | – | 94.49 ± 1.31% | 4.9 µM | – | – |
| COc1ccc(CCC(O)C2(O)CCCCC2)cc1 (centres unmarked) | – | 97.00 ± 1.41% | 1.58 µM | – | – |
| COC(=O)c1ccc(S(=O)(=O)CCOC(=O)c2cccc(Cl)c2)nc1 | – | 77.53 ± 0.99% | 15.7 µM | – | – |
| O=C1C(Cl)=C(Nc2ccc(S(=O)(=O)O)cc2)C(=O)c2ccccc21 | – | 97.22 ± 0.81% | 2.41 µM | – | – |
| S=c1[nH]cnc2nc[nH]c12 | – | 97.06 ± 1.17% | 3.29 µM | – | – |
| O=C1C=CC(=O)C(c2cccc(C(=O)O)c2)=C1 | – | 98.62 ± 1.50% | 5.59 µM | – | – |
| O=C1C(Cl)=C(Sc2n[nH]c(=O)[nH]c2=O)C(=O)N1Cc1ccccc1 | – | 95.92 ± 0.12% | 13.2 µM | – | – |
| Sc1nc2c(s1)-c1ccccc1CC2 | – | 96.74 ± 0.72% | 46.9 µM | – | – |
| CN1C(=O)C(=Cc2cc(Br)c(O)c([N+](=O)[O-])c2)C(=O)N(C)C1=O | – | 98.02 ± 1.44% | 0.831 µM | – | – |
| O=C1C=CC(=O)N1c1ccccc1[N+](=O)[O-] | – | 99.41 ± 0.09% | 5.36 µM | – | – |
| O=C1c2ccc(S(=O)(=O)O)cc2-c2nc(-c3ccccc3)nc3ccc(Cl)c1c23 | – | 90.48 ± 1.06% | 4.4 µM | – | – |
| O=C(NC1C(Cl)=C(Cl)C(=O)N1Cc1ccccc1)c1ccccc1 (centres unmarked) | – | 98.71 ± 0.83% | 3.06 µM | – | – |
| Cc1ccc(N2COc3ccc4ccccc4c3C2)cc1 | – | 92.95 ± 0.40% | 11.9 µM | – | – |
| O=C(CCS(=O)(=O)c1ccc(Br)cc1)c1ccc(Cl)cc1 | – | 78.09 ± 2.19% | 8.64 µM | – | – |
| COc1ccc(O)c(C(=O)C2c3ccccc3C(=O)N2c2ccc(C)cc2)c1 (centres unmarked) | – | 85.21 ± 2.02% | 1.94 µM | – | – |
| O=C(Nc1ccccc1)Oc1c(Br)cc2oc(=O)sc2c1Br | – | 92.49 ± 1.05% | 12.8 µM | – | – |
| O=C1CC(N2CCCc3ccccc32)C(=O)N1c1cc(Cl)cc(Cl)c1 (centres unmarked) | – | 98.69 ± 1.42% | 2.98 µM | – | – |
| CC(=O)C(=CNc1cc(C)c(O)c(Cl)c1)C(C)=O | – | 98.51 ± 1.39% | 7.87 µM | – | – |
| COCc1cc(C)nc(NN=Cc2cc(Br)cc(I)c2O)c1C#N | – | 97.86 ± 0.21% | 3.58 µM | – | – |
| O=[N+]([O-])c1c(N2CCOCC2)cc(Cl)c2nonc12 | – | 95.77 ± 1.08% | 2.64 µM | – | – |
